Earlier results, collected in paper PMC3707847 (PLoS ONE, 2013).

Test system: RNA polymerase of hepatitis C virus
Details: cited from earlier work

## Nc1ncnc2c1ncn2[C@@H]1O[C@H](COP(=O)(O)OP(=O)(O)OP(=O)(O)O)[C@@H](O)[C@H]1O [ATP]
  Error rate of HCV RNA polymerase, A:C mismatch: 2.3×10^−6

## Nc1nc2c(ncn2[C@@H]2O[C@H](COP(=O)(O)OP(=O)(O)OP(=O)(O)O)[C@@H](O)[C@H]2O)c(=O)[nH]1 [GTP]
  Error rate of HCV RNA polymerase, G:U mismatch: 8.7×10^−3
